## Replication capacity of HIV-1 mutants, non-coding ends

Positions lie in the non-coding 5' end or the 3' LTR of the genome. Changes in the 5' U3 are not copied into viral RNA and those in the 3' R are mostly lost on reverse transcription, so a low index there need not show harm (not discussed in the paper).

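Seven fragments of pNL4-3 were mutated by error-prone PCR, and each virus pool was passaged in CEM T cells. Sequencing gave the RC index: frequency after two rounds over frequency in the input plasmid.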

RC index: lower means poorer replication; rough cut-offs are 0.1 (lethal) and 0.2 (tolerated). Input reads are the counts in the plasmid library.

base,region,input reads,RC
A193T,5' U3,277,0.0246
G217T,5' U3,109,0.282
G226A,5' U3,195,0.297
G249A,5' U3,382,0.0357
G271A,5' U3,201,0.136
C275T,5' U3,417,0.0573
C280A,5' U3,245,0.195
T284A,5' U3,735,0.0813
G294T,5' U3,292,0.409
G302T,5' U3,286,0.129
G328T,5' U3,301,0.122
G337A,5' U3,371,0.264
C344T,5' U3,295,0.166
T345C,5' U3,272,0.180
G350A,5' U3,296,0.290
G366A,5' U3,363,0.304
G375T,5' U3,609,0.503
G380A,5' U3,392,0.188
G409A,5' U3,490,0.200
A410G,5' U3,241,0.153
T448C,5' U3,139,0.347
C460A,5' R,124,0.389
A468G,5' R,113,0.854
G469A,5' R,113,0.854
G487A,5' R,108,0.447
A509G,5' R,110,0.877
T518C,5' R,147,0.657
C539A,5' R,129,0.374
A552G,5' U5/leader,88,0.548
G729A,5' U5/leader,209,0.0832
G733A,5' U5/leader,352,0.0549
C741T,5' U5/leader,407,0.128
C751T,5' U5/leader,647,0.194
A759G,5' U5/leader,172,0.0899
T762C,5' U5/leader,366,0.0370
G764A,5' U5/leader,252,0.583
A788G,5' U5/leader,297,0.0716
A9423T,3' U3,483,0.825
C9429A,3' U3,73,0.578
T9432C,3' U3,292,0.492
C9433A,3' U3,106,0.542
C9433T,3' U3,186,0.318
A9442G,3' U3,436,0.581
T9445A,3' U3,195,0.546
T9445G,3' U3,51,0.497
G9455T,3' U3,76,1.04
T9458C,3' U3,318,0.685
C9489A,3' U3,118,0.733
A9501G,3' U3,201,0.0442
G9510T,3' U3,82,0.676
T9518C,3' U3,156,1.82
T9523C,3' U3,167,0.598
C9527A,3' U3,83,0.909
G9530T,3' R,61,1.02
C9547T,3' R,234,0.180
A9550G,3' R,103,0.151
C9567T,3' R,83,0.0535
T9574A,3' R,129,0.0860
C9577A,3' R,68,0.294
A9579T,3' R,213,0.0833
T9590A,3' R,261,0.0510
T9590C,3' R,173,0.128
A9596T,3' R,192,0.0693
G9597A,3' R,169,0.223
T9604C,3' R,63,0.176

The authors read an index above 1 as above wild type (1.9% of all changes in the genome). Since each clone held several changes (about five per kb), neutral changes can read low. Base changes are numbered along pNL4-3.

Source: Al-Mawsawi et al. 2014 (doi:10.1186/s12977-014-0124-6), supplementary data.